Compound potency records, mixed from different reports. Data source: NIAID ChemDB in PubChem.

Common to all: tests in culture; organism: HIV-1; read by: cytopathic effect / XTT; measure: EC50

ECn is the concentration giving n% inhibition of infection, replication or growth.

smiles	mutations	cells	strain	result
C[C@H]1/C=C/[C@@]2(C)CC[C@@H](C(C)(C)O)[C@@H]2[C@@H](O)C[C@](C)(O)/C=C/C1		U87 (CD4+ CCR5+ CXCR4+) + U87	95BRRJ021 R5	~9 µM
S=C(NCCc1ccccn1)Nc1ccc(Br)cn1		MT-4	IIIB	0.02 µM
CCO[C@H]1N([C@H]2C=C[C@@H](CO)O2)C(=O)NC(=O)[C@]1(C)Br		CEM	RF	>14 µM
O=S1(c2ccccc2)=NC(=S)Nc2ccccc21		CEM + CEM-SS	LAV	0.95 µM
CN1CCC(CC2(CC3CCN(C)CC3)c3ccccc3-c3ccccc32)CC1		MT-2	IIIB	1 µM
C[C@H]1[C@H](C)Oc2c3c(c4c(-c5ccccc5)cc(=O)oc4c2[C@H]1O)OC(C)(C)C=C3		CEM + CEM-SS	RF	~0.4 µM
C/C=C/CSc1cc(NC(=S)c2ccsc2C)ccc1Cl	RT-P236L	CEM + CEM-SS	HEPT-resistant (RT P236L)	0.4 µM
Cc1cn([C@H]2C[C@H](N=[N+]=[N-])[C@@H](CO)O2)c(=O)[nH]c1=O		CEM + CEM-SS	RF	1.71 µM
CC(C)=CCN1Cc2cc(Cl)cc3[nH]c(=S)n(c23)C[C@@H]1C	RT-L100I Y188H	MT-4	22(RT-L100I Y188H)	>10 µM
CC1(C)CC(=O)C2=C(C1)NC(SSC1=C(C#N)C(c3ccc(F)cc3)C3=C(CC(C)(C)CC3=O)N1)=C(C#N)C2c1ccc(F)cc1		CEM + CEM-SS	RF	3.4 µM
CS(=O)(=O)N1CCC(CC2C(=O)N(c3ccccc3)c3ccccc32)CC1		MT-2	IIIB	7.8 µM
Nc1nc2c(ncn2[C@H]2CO[C@@H](CO)O2)c(=O)[nH]1	RT-L74V K103N	MT-2	Site-directed mutant	3.96 µM
CNC(=O)[C@@H](NC(=O)[C@H](OCc1ccc(F)cc1F)[C@H](O)[C@@H](O)[C@@H](OCc1ccc(F)cc1F)C(=O)N[C@H](C(=O)NC)C(C)C)C(C)C		MT-4		0.9 µM
O=C1c2ccccc2C(=O)N1CC(O)CN1CCC(CC2C(=O)N(c3ccccc3)c3ccccc32)CC1		MT-2	IIIB	7.9 µM
CNC(=O)[C@@H](NC(=O)[C@H](OCc1ccc(/C=C/C(=O)OC)cc1)[C@H](O)[C@@H](O)[C@@H](OCc1ccc(/C=C/C(=O)OC)cc1)C(=O)N[C@H](C(=O)NC)C(C)C)C(C)C		MT-4		0.3 µM
Nc1ncnc2c1ncn2C1CC(CO)C1		CEM	IIIB	301 µM
Cc1cn([C@H]2C[C@H](F)[C@@H](CO)O2)c(=O)[nH]c1=O		MT-4		0.005 µM
CCOCn1c([Se]c2cccc(C)c2)c(CC)c(=O)[nH]c1=S		CEM + CEM-SS	RF	0.02 µM
NNC(=O)c1ccccc1SSc1ccccc1C(=O)NN		CEM + CEM-SS	RF	0.73 µM
Cc1cn([C@H]2C[C@H](N=[N+]=[N-])[C@@H](CO)O2)c(=O)[nH]c1=O		MT-4	IIIB	0.01 µM
CC(C)c1c([Se]c2ccccc2)n(COCCO)c(=O)[nH]c1=O		CEM + CEM-SS	RF	0.11 µM
CN1CC=C(CC2(CC3=CCN(C)CC3)c3ccccc3-c3ccccc32)CC1		MT-2	IIIB	13 µM
O=c1[nH]cnc2c1ncn2[C@H]1CC[C@@H](CO)O1		MT-2	LAI	11.8 µM
Cn1cc(N)cc1C(=O)Nc1cc(C(=O)Nc2ccc3cc(S(=O)(=O)O)cc(S(=O)(=O)O)c3c2)n(C)c1		CEM + CEM-SS	N119	7 µM
CNC(=O)[C@@H](NC(=O)[C@H](OCc1cccc(F)c1)[C@H](O)[C@@H](O)[C@@H](OCc1cccc(F)c1)C(=O)N[C@H](C(=O)NC)C(C)C)C(C)C		MT-4		0.8 µM
CC(C)[C@@H]1SCC[C@@H]1OC(=O)N[C@@H](Cc1ccccc1)[C@H](O)CN1C[C@H]2CCS[C@H]2C[C@H]1C(=O)NC(C)(C)C		CEM + CEM-SS	HXB2	<0.686 µM
O=C1N(Cc2ccc(CO)cc2)[C@H](Cc2ccccc2)[C@H](O)[C@@H](O)[C@@H](Cc2ccccc2)N1Cc1ccc(CO)cc1	PR-L90M	MT-4	IIIB	0.3 µM
CC(C)CC(NC(=O)c1ccccc1SSc1ccccc1C(=O)NC(CC(C)C)C(=O)O)C(=O)O		CEM		8.9 µM
Nc1nc(NC2CC2)c2ncn([C@H]3C=C[C@@H](CO)C3)c2n1	RT-K103N	MT-2	Site-directed mutant	1.5 µM
CCC(C)[C@H]1C(=O)O[C@H](C(C)C)C(=O)N(C)[C@@H](C(C)C)C(=O)O[C@H](C(C)C)C(=O)N(C)[C@@H](C(C)C)C(=O)O[C@H](C(C)C)C(=O)N1C		CEM + CEM-SS		0.01 µg/mL
Cc1cccc([Se]c2c(C(C)C)c(=O)[nH]c(=S)n2COCc2ccccc2)c1		CEM + CEM-SS	RF	0.045 µM
CCc1cc(NCc2nc3c(Cl)ccc(Cl)c3o2)c(=O)[nH]c1C		MT-4	IIIB	0.1 µM
O=C(Nc1ccc(Cl)cc1)c1ccccc1SSc1ccccc1C(=O)Nc1ccc(Cl)cc1		CEM		>8 µM
CC(C)(C)NC(=O)[C@@H]1C[C@@H]2SCC[C@@H]2CN1C[C@@H](O)[C@H](CSc1ccccc1)NC(=O)O[C@H]1CCS(=O)(=O)C1		CEM + CEM-SS	HXB2	<0.059 µM
Cc1cn([C@H]2C[C@H](N=[N+]=[N-])[C@@H](CO)O2)c(=O)[nH]c1=O	RT-D67N K70R L100I T215Y K219Q	CEM + CEM-SS	4XAZT/L100I (RT D67N K70R L100I T215Y K219Q)	0.1 µM
CNC(=O)CSP(=O)(NCC(=O)OC)OC[C@H]1O[C@@H](n2cc(C)c(=O)[nH]c2=O)C[C@@H]1F		MT-4		0.005 µM
O=C(Nc1ccccc1O)c1ccccc1SSc1ccccc1C(=O)Nc1ccccc1O		CEM		>10 µM
Cc1ccnc2c1NC(=O)c1cccnc1N2C1CC1	RT-L100I	CEM + CEM-SS	NL4-3 (RT L100I)	0.1 µM
Cc1ccnc2c1NC(=O)c1cccnc1N2C1CC1		CEM + CEM-SS	NL4-3	0.02 µM
O=C(N[C@H]1c2ccccc2C[C@H]1O)[C@H](OCc1ccccc1F)[C@H](O)[C@@H](O)[C@@H](OCc1ccccc1F)C(=O)N[C@H]1c2ccccc2C[C@H]1O		MT-4		0.04 µM
Cc1ccnc2c1NC(=O)c1cccnc1N2C1CC1	RT-L100I Y188H	MT-4	22(RT-L100I Y188H)	14 µM
CNC(=O)CSP(=O)(NCC(=O)OC)OCCOCn1cnc2c(=O)[nH]c(N)nc21		MT-4		70 µM
CCCc1cc(=O)oc2c3c(c4c(c12)OC(C)(C)C=C4)O[C@H](C)[C@H](C)[C@H]3O		CEM + CEM-SS	RF	>100 µM
Cc1ccnc2c1NC(=O)c1cccnc1N2C1CC1		CEM + CEM-SS	RF	0.2 µM
Nc1cc(C(=O)O)ccc1SSc1ccc(C(=O)O)cc1N		CEM + CEM-SS	RF	31.2 µM
Cc1occc1C(=S)Nc1ccc(Cl)c(/C=N/OC(C)(C)C)c1	RT-Y181C	CEM + CEM-SS	Diphenyl sulfone-resistant (RT-Y181C)	1.1 µM
CNC(=O)[C@@H](NC(=O)[C@H](OCc1ccccc1)[C@H](O)[C@@H](O)[C@@H](OCc1ccccc1)C(=O)N[C@H](C(=O)NC)C(C)C)C(C)C		MT-4		0.5 µM
Nc1cc(S(N)(=O)=O)ccc1SSc1ccc(S(N)(=O)=O)cc1N		CEM + CEM-SS	RF	18 µM
O=C1N(c2ccccc2)c2ccccc2C1(Cc1ncc[nH]1)Cc1ncc[nH]1		MT-2	IIIB	4.1 µM
O=S(=O)(SC1=NCCN1)c1ccccc1		CEM + CEM-SS	RF	76.5 µM
CN1CC=C(CC2(Cc3ccccc3)C(=O)N(c3ccccc3)c3ccccc32)CC1		MT-2	IIIB	4.9 µM
CNC(=O)CSP(=O)(NCC(=O)OC)OC[C@H]1O[C@@H](n2cc(C)c(=O)[nH]c2=O)C[C@@H]1OC(C)=O		MT-4		>100 µM
O=c1c2ccccc2n2nnc3ccc(NCCCN4CCN(CCCNc5ccc6nnn7c8ccccc8c(=O)c5c67)CC4)c1c32		CEM + CEM-SS	RF	0.0011 µM
CC(C)[C@H]1[C@@H](OC(=O)N[C@@H](Cc2ccccc2)[C@H](O)CN2C[C@H]3CCCC[C@H]3C[C@H]2C(=O)NC(C)(C)C)CCS1(=O)=O		CEM + CEM-SS	HXB2	<0.273 µM
CCOCn1c([Se]c2ccccc2)c(C(C)C)c(=O)[nH]c1=S		CEM + CEM-SS	RF	0.034 µM
O=C1N(c2ccccc2)c2ccccc2C1(CCc1cccnc1)CCc1cccnc1		MT-2	IIIB	2 µM
Fc1cccc(F)c1C1SCc2nc3ccccc3n21		CEM + CEM-SS	PM16	2.19 µM
O=C(O)Cc1ccc(SSc2ccc(CC(=O)O)cc2)cc1		CEM + CEM-SS	RF	23.1 µM
Cc1cn([C@H]2C[C@H](N=[N+]=[N-])[C@@H](CO)O2)c(=O)[nH]c1=O		MT-2	NL4-3 Recombinant	0.3 µM
Cc1cn([C@H]2C[C@H](N=[N+]=[N-])[C@@H](CO)O2)c(=O)[nH]c1=O		CEM + CEM-SS	IIIB	0.002 µM
CC(C)[C@H]1[C@@H](OC(=O)N[C@@H](CSc2ccccc2)[C@H](O)CN2C[C@H]3CCS[C@H]3C[C@H]2C(=O)NC(C)(C)C)CCS1(=O)=O		CEM + CEM-SS	HXB2	<0.089 µM
CC[C@H](C)[C@H](NC(=O)c1ccccc1SSc1ccccc1C(=O)N[C@H](C(=O)O)[C@@H](C)CC)C(=O)O		CEM		5 µM
C[C@@H]1OCC[C@@H]1OC(=O)N[C@@H](CSc1ccccc1)[C@H](O)CN1C[C@H]2CCS[C@H]2C[C@H]1C(=O)NC(C)(C)C		CEM + CEM-SS	HXB2	<0.162 µM
CNC(=O)C(NC(=O)[C@H](OCc1ccccc1C)[C@H](O)[C@@H](O)[C@@H](OCc1ccccc1C)C(=O)N[C@H](C(=O)NC)C(C)C)C(C)C		MT-4		0.4 µM

6 of the rows above, restated:

smiles	mutations	cells	strain	result
Nc1ncnc2c1ncn2C1CC(CO)C1		CEM	IIIB	301 µM
Cc1cccc([Se]c2c(C(C)C)c(=O)[nH]c(=S)n2COCc2ccccc2)c1		CEM + CEM-SS	RF	0.045 µM
Cc1cn([C@H]2C[C@H](N=[N+]=[N-])[C@@H](CO)O2)c(=O)[nH]c1=O	RT-D67N K70R L100I T215Y K219Q	CEM + CEM-SS	4XAZT/L100I (RT D67N K70R L100I T215Y K219Q)	0.1 µM
CN1CC=C(CC2(Cc3ccccc3)C(=O)N(c3ccccc3)c3ccccc32)CC1		MT-2	IIIB	4.9 µM
CC(C)[C@H]1[C@@H](OC(=O)N[C@@H](CSc2ccccc2)[C@H](O)CN2C[C@H]3CCS[C@H]3C[C@H]2C(=O)NC(C)(C)C)CCS1(=O)=O		CEM + CEM-SS	HXB2	<0.089 µM
CN1CC=C(CC2(CC3=CCN(C)CC3)c3ccccc3-c3ccccc32)CC1		MT-2	IIIB	13 µM

Neighbouring rows are from separate reports. An empty or dashed field is not shown.